The values below come from article PMC7865074, “Role of PDZ-binding motif from West Nile virus NS5 protein on viral replication” (Scientific Reports, 2021).

Ends that are not written are not given here.

The test addresses T1, biotinylated WNV NS5 PBM peptide (West Nile virus, also: biotinyl group, end not given here).
T1 construct: bait of the holdup assay; also called 13-mer peptide; source: synthetic peptide (solid phase, Fmoc; Proteogenix)
T1 peptide: RYEDTTLVEDTVL
Put plainly: holdup assay (automated high-throughput chromatography); biotinylated NS5 PBM peptide as bait against 259 human PDZ domains expressed in E. coli; read-out binding intensity (BI), mean of replicates; BI threshold 0.2 for a significant interaction.

B1: Serine protease HTRA1, PDZ domain (holdup construct) (domain or fragment)
chain: not shown
notes: source: E. coli, PDZome V.2 library, high-throughput expression
As to B1, the “BI (holdup binding intensity)” value worked out at 0.3.
